Test [1] concerns the target T1, PA28γ, endogenous in Huh7OK1 cells (human (endogenous in Huh7OK1)), P61289.
T1 chain: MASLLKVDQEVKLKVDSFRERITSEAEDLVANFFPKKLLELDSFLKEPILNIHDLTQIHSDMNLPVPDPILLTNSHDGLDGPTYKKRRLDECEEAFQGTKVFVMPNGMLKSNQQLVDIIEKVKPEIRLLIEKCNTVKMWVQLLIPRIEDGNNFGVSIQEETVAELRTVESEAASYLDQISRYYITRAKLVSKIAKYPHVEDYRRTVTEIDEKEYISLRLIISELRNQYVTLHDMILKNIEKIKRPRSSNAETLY
As to the kind of experiment: native gel or EMSA. The following applies: remark: other sources report otherwise. On the technique in general: In EMSA bound probe runs differently from free probe, usually more slowly.

Test [2] deals with T2, PA28γ expressed from pEF PA28γ, P61289.
T2 chain: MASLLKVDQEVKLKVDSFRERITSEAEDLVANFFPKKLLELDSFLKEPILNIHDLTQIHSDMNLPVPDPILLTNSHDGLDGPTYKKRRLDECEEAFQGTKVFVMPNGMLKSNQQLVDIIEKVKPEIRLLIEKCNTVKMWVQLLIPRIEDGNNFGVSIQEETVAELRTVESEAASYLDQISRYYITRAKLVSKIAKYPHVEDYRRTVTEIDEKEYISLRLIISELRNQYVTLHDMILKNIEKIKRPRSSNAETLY
Description: native gel or EMSA. The following applies: remark: other sources report otherwise.

A word on the stoichiometry N: it is the number of molecules, sites or subunits per partner or assembly.

B1: PA28γ, endogenous in Huh7OK1 cells, P61289 1-254 (natural protein)
chain: MASLLKVDQEVKLKVDSFRERITSEAEDLVANFFPKKLLELDSFLKEPILNIHDLTQIHSDMNLPVPDPILLTNSHDGLDGPTYKKRRLDECEEAFQGTKVFVMPNGMLKSNQQLVDIIEKVKPEIRLLIEKCNTVKMWVQLLIPRIEDGNNFGVSIQEETVAELRTVESEAASYLDQISRYYITRAKLVSKIAKYPHVEDYRRTVTEIDEKEYISLRLIISELRNQYVTLHDMILKNIEKIKRPRSSNAETLY
Regarding B1, the stoichiometry N in test [1] worked out at 7.

B2: PA28γ expressed from pEF PA28γ, P61289 1-254 (natural protein)
chain: MASLLKVDQEVKLKVDSFRERITSEAEDLVANFFPKKLLELDSFLKEPILNIHDLTQIHSDMNLPVPDPILLTNSHDGLDGPTYKKRRLDECEEAFQGTKVFVMPNGMLKSNQQLVDIIEKVKPEIRLLIEKCNTVKMWVQLLIPRIEDGNNFGVSIQEETVAELRTVESEAASYLDQISRYYITRAKLVSKIAKYPHVEDYRRTVTEIDEKEYISLRLIISELRNQYVTLHDMILKNIEKIKRPRSSNAETLY
With B2, in test [2], the stoichiometry N is 7.

Values taken from PMC11559043.
